A mixed list of measured activities; the numbers were collected in NIAID ChemDB.

All rows: whole-cell or culture tests; species: Influenza A virus; cells: MDCK; endpoint: EC50

An empty or dashed field is not shown. Conditions beyond the fields shown may differ between rows. ECn is the concentration giving n% inhibition of infection, replication or growth.

compound	strain	read by	result
Nc1nc2c(ncn2[C@@H]2C[C@H](CO)[C@H]2CO)c(=O)[nH]1	WSN	plaque count	>377 µM
N#Cc1cc(NC(=O)c2ccccc2)c(=O)n2c1[nH]c1ccccc12	A/Bangkok	plaque count	2 µg/mL
C[C@H](CO)[C@@H](OC(=O)NCCCCCCN)[C@@H]1OC(C(=O)O)=C[C@H](N=C(N)N)[C@H]1NC(=O)O	H3N2 AICHI	plaque count	0.005 µg/mL
CCOC(=O)c1cc(C#N)c2[nH]c3ccccc3n2c1=O	A/Bangkok	plaque count	200 µg/mL
CCC(CC)O[C@@H]1C=C(C(=O)O)C[C@H](N)[C@H]1NC(C)=O	Influenza A/Beijing/32/92 (H3N2)	-	0.23 µM
C/C1=C\C=C\C2(C)C=C(CO[C@H]3O[C@H](CO)[C@H](O)[C@H](O)[C@H]3O)C(C)CC23OC([O-])C(C3=O)C(O)/C=C/C2(C)C=C(CO)C(C)CC23OC([O-])C(C3=O)C(O)/C(C)=C/C=C/C2C=C(CO[C@H]3O[C@H](CO)[C@H](O)[C@H](O)[C@H]3O)C(C)CC23OC([O-])C(C3=O)C(O)/C=C/C2(C)C=C(CO)C(C)CC23OC([O-])C(C3=O)C1O	A/Victoria	cytopathic effect	88 µg/mL
CC(=O)N[C@H]1[C@H]([C@H](O)[C@H](O)CO)OC(C(=O)O)=C[C@@H]1N=C(N)N	Influenza A/Sydney/05/97 (H3N2)	neutral red	0.078 µM
C/C1=C\C=C\C2(C)C=C(CO[C@H]3O[C@H](CO)[C@H](O)[C@H](O)[C@H]3O)C(C)CC23OC([O-])C(C3=O)C(O)/C=C/C2(C)C=C(CO)C(C)CC23OC([O-])C(C3=O)C(O)/C(C)=C/C=C/C2C=C(CO[C@H]3O[C@H](CO)[C@H](O)[C@H](O)[C@H]3O)C(C)CC23OC([O-])C(C3=O)C(O)/C=C/C2(C)C=C(C=O)C(C)CC23OC([O-])C(C3=O)C1O	A/Victoria	cytopathic effect	>100 µg/mL
CCOC(=O)c1cc(C(=O)O)c(=O)n2c1[nH]c1ccccc12	Influenza A/Ishikawa/7/82 (H3N2)	plaque count	40 µg/mL
CC#Cc1cn([C@@H]2O[C@H](COP(=O)(OCC(Cl)(Cl)Cl)Oc3ccccc3)[C@@H](O)[C@@H]2O)c(=O)[nH]c1=O	H1N1 A/Sweden/3/50	plaque count	>10 µM
Cc1ccc(C2NC(=O)C3NC(=O)C(c4cc(O)cc(O)c4)NC(=O)C(NC(=O)C(N)Cc4ccc(O)cc4)Cc4c[nH]c5cc(ccc45)-c4cc3cc(c4O)Oc3ccc(cc3)CC(C(=O)NC(C(=O)O)c3ccc(O)c(O)c3)NC2=O)cc1Cl	A/Victoria	plaque count	66 µg/mL
CCN(C(=O)N1C[C@H](N)[C@](O)(C(=O)O)C1)C(C)C	Influenza A/Victoria/3/75 (H3N2)	cytopathic effect	2 µM
CC#Cc1cn([C@@H]2O[C@H](COP(=O)(O)Oc3ccccc3Cl)[C@@H](O)[C@@H]2O)c(=O)[nH]c1=O	H1N1 A/Sweden/3/50	plaque count	>100 µM
C/C1=C\C=C\C2(C)C=C(CO)C(C)CC23OC([O-])C(C3=O)C(O)/C=C/C2(C)C=C(CO)C(C)CC23OC([O-])C(C3=O)C(O)/C(C)=C/C=C/C2C=C(CO)C(C)CC23OC([O-])C(C3=O)C(O)/C=C/C2(C)C=C(C=O)C(C)CC23OC([O-])C(C3=O)C1O	A/Victoria	cytopathic effect	9.9 µg/mL
CCCCCCCNC(=O)O[C@@H]([C@@H]1OC(C(=O)O)=C[C@H](N)[C@H]1NC(=O)O)[C@H](C)CO	H3N2 AICHI	plaque count	1.8 µg/mL
CC#Cc1cn([C@@H]2O[C@H](COP(=O)(O)Oc3ccc(F)cc3)[C@@H](O)[C@@H]2O)c(=O)[nH]c1=O	H1N1 A/Sweden/3/50	plaque count	>100 µM
CC(C)Oc1ccccc1CNC(=O)c1ccc2cnccc2n1	-	cytopathic effect	>10 µM
N#Cc1cc(CC(=O)c2ccccc2)c(=O)n2c1sc1ccccc12	Influenza A/Ishikawa/7/82 (H3N2)	plaque count	>40 µg/mL
O=C(NCCc1ccccc1)C1=Cc2ccncc2CC1	-	cytopathic effect	>344 µM
N#Cc1cc(C#N)c2[nH]c3ccccc3n2c1=O	Influenza A/Ishikawa/7/82 (H3N2)	plaque count	40 µg/mL
N#CNc1nncs1	A/Brazil/11/78	plaque count	0.7 µg/mL
C[C@H](CO)[C@@H](OC(N)=O)[C@@H]1OC(C(=O)O)=C[C@H](N)[C@H]1NC(=O)O	H3N2 AICHI	plaque count	0.47 µg/mL
CC#Cc1cn([C@@H]2O[C@H](COP(=O)(O)Oc3ccc(OC)cc3)[C@@H](O)[C@@H]2O)c(=O)[nH]c1=O	H1N1 A/Sweden/3/50	plaque count	>100 µM
C[C@H](CO)[C@@H](OC(N)=O)[C@@H]1OC(C(=O)O)=C[C@H](N=C(N)N)[C@H]1NC(=O)O	H3N2 AICHI	plaque count	0.005 µg/mL
CCC(CC)O[C@@H]1C=C(C(=O)O)C[C@H](N)[C@H]1NC(C)=O	Influenza A/Victoria/3/75 (H3N2)	plaque count	0.0006 µM

A second listing of 2 rows from above:

compound | strain | read by | result
Nc1nc2c(ncn2[C@@H]2C[C@H](CO)[C@H]2CO)c(=O)[nH]1 | WSN | plaque count | >377 µM
CCOC(=O)c1cc(C(=O)O)c(=O)n2c1[nH]c1ccccc12 | Influenza A/Ishikawa/7/82 (H3N2) | plaque count | 40 µg/mL